Test [1] has as its system hypoxic mammaliam cells in culture. The note with it: cited from earlier work.
The subject of test [2] is UV4 cells. The note with it: αMEM, prodrug concentration 50.
Test [3] deals with UV4 cells. As to the kind of experiment: HPLC/bioassay of irradiated solution of compound 1. The note with it: sodium formate, dose corresponding to one reducing equivalent (FIG. 2).
In test [4] the test system is SKOV3 cells. Nature of the test: Cytotoxicity against SKOV3 cells, 4 hr aerobic exposure. The settings on record: read-out: IC50, P (unirradiated prodrug); SKOV3, 4 hr aerobic exposure; mean ± SEM. The test is classed as cell-based, human.
Test [5] in a line: Assay 1: radiolytic reduction of prodrug in formate buffer (or other solution), products analysed by HPLC.
Test [6] deals with UV4 cells. As to the kind of experiment: Cytotoxicity against UV4 cells, 4 hr aerobic exposure. The test is classed as cell-based. The note with it: read-out: IC50, P (unirradiated prodrug); UV4, 4 hr aerobic exposure; mean ± SEM.

For orientation: IC50 means the concentration that inhibits the measured activity by half. With “bis(3-methyl-2,4-pentanedionato)(N,N-bis(2-chloroethyl)ethylenediamine)cobalt (III) chloride”, the “selective toxicity to hypoxic cells” value in test [1] is given as “selectively toxic to hypoxic mammaliam cells in culture”. Also, in test [2], the “G(+E), anoxic, Assay 2 (yield of effector)” value was determined as 0.15 μM/Gy. In test [3], the “bioactivity of HPLC eluate after irradiation” value was “loss of bioactivity in the region corresponding to the parent, and the appearance of a new peak of bioactivity corresponding in retention time to authentic DCE”. The IC50 in test [4] turned out to be 20 µM; in test [6] it was 0.3 µM. Besides, the “effect of oxygen on radiolytic consumption of complex and formation of DCE and Co(II)(H2O)6^2+” value in test [5] (50 μM in formate (FIG. 1)) is on record as “inhibited by oxygen”. Also, the “release of DCE (2) and Co(II)(H2O)6^2+ by irradiation in culture medium” value in test [5] (culture medium (αMEM) (FIG. 1)) is listed as “also observed in culture medium”. In addition, the “G(+E), anoxic, Assay 1 (yield of effector)” value in test [5] (prodrug 50 μM in sodium formate pH 7.0, anoxic, cobalt-60, HPLC) is 0.76 μM/Gy.

The record behind these values is patent US6071908A (priority 1995, dated 2000).
